Taken from: PubChem BioAssay AID1224833 (University of Georgia, 2016)
Purpose: 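Human genes whose knock-down alters rotavirus replication in monkey cells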 (primary screen). System: monkey MA104 kidney cells. Reagents: siRNA pool against human genes, 50 nM. Time to read-out: 48 h knock-down before infection; read 24 h after infection. Conditions: infection with rotavirus strain RV3 two days after transfection; infectious dose for this stage not given. Measurement: 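Rotavirus antigen per well by fluorescent immunoassay, normalised to non-targeting control wells on each plate and given as a standard z-score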. Direction: z-score vs non-targeting control: higher = more rotavirus replication than with non-targeting control. Active means: In these data the active calls have z-score vs non-targeting control at about -1 or lower, or at about 1 or higher. Calls: active = z-score beyond 1 either way; inactive = z-score within 1 of zero.
In all, the deposit lists about 12,000 reagents; this is an unselected part. Of all reagents, about 5,600 (46%) got an active call. 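Active calls cover z-scores past 1 in both directions, so they include lowered as well as raised rotavirus replication.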 The numbers tell different reagents against one gene apart.

| target | reagent no. | z-score vs non-targeting control | call |
| --- | --- | --- | --- |
| ARHGAP27 (Rho GTPase activating protein 27) | 1 | 2.28 | active |
| GPATCH3 (G-patch domain containing 3) | 1 | 1.39 | active |
| SLC36A3 | 1 | -0.549 | inactive |
| AAAS (aladin WD repeat nucleoporin) | 1 | -0.634 | inactive |
| INSL5 (insulin like 5) | 1 | -1.01 | active |
| RPL41 (ribosomal protein L41) | 1 | 1.63 | active |
| MYO18A (myosin XVIIIA) | 1 | 0.835 | inactive |
| MYO18A (myosin XVIIIA) | 2 | 0.0525 | inactive |
| SERF1A (small EDRK-rich factor 1A) | 1 | 0.753 | inactive |
| ADPRHL1 (ADP-ribosylhydrolase like 1) | 1 | -0.531 | inactive |
| PXMP2 (peroxisomal membrane protein 2) | 1 | -0.194 | inactive |
| SPANXN1 (SPANX family member N1) | 1 | -1.19 | active |
| RAMP1 (receptor activity modifying protein 1) | 1 | -2.06 | active |
| RPL8 (ribosomal protein L8) | 1 | -1.17 | active |
| CWF19L2 (CWF19 like cell cycle control factor 2) | 1 | 0.0062 | inactive |
| NUP133 (nucleoporin 133) | 1 | 0.964 | inactive |
| CSHL1 (chorionic somatomammotropin hormone like 1) | 1 | -0.747 | inactive |
| PSMC5 (proteasome 26S subunit, ATPase 5) | 1 | 2.05 | active |
| TUBGCP5 (tubulin gamma complex component 5) | 1 | -0.415 | inactive |
| LINC02910 (long intergenic non-protein coding RNA 2910) | 1 | 0.991 | inactive |
| C2CD3 (C2 domain containing 3 centriole elongation regulator) | 1 | -1.46 | active |
| ANXA1 (annexin A1) | 1 | -1.81 | active |
| TSPO2 (translocator protein 2) | 1 | 0.433 | inactive |
| RXFP1 (relaxin family peptide receptor 1) | 1 | -1.17 | active |
| SLC30A9 | 1 | 0.537 | inactive |
| JAG2 (jagged canonical Notch ligand 2) | 1 | -3.07 | active |
| OBSCN | 1 | -0.0817 | inactive |
| GSN (gelsolin) | 1 | 0.456 | inactive |
| RP9 (RP9 pre-mRNA splicing factor) | 1 | -1.07 | active |
| KIF22 (kinesin family member 22) | 1 | -1.22 | active |
| CTH (cystathionine gamma-lyase) | 1 | -0.665 | inactive |
| HEPACAM (hepatic and glial cell adhesion molecule) | 1 | 1.91 | active |
| GEMIN7 (gem nuclear organelle associated protein 7) | 1 | -0.756 | inactive |
| TINF2 (TERF1 interacting nuclear factor 2) | 1 | -0.502 | inactive |
| ARMCX2 (armadillo repeat containing X-linked 2) | 1 | -0.487 | inactive |
| TAGAP (T cell activation RhoGTPase activating protein) | 1 | -1.34 | active |
| FASTKD2 (FASTK mitochondrial RNA regulator 2) | 1 | 0.195 | inactive |
| BNC1 (basonuclin zinc finger protein 1) | 1 | -0.7 | inactive |
| ADIPOR1 (adiponectin receptor 1) | 1 | 0.0904 | inactive |
| FGF14 (fibroblast growth factor 14) | 1 | -2.73 | active |
| SMOC2 (SPARC related modular calcium binding 2) | 1 | -1.41 | active |
| OR2B6 (olfactory receptor family 2 subfamily B member 6) | 1 | 1.54 | active |
| POLR2E (RNA polymerase II, I and III subunit E) | 1 | -1.95 | active |
| BEGAIN (brain enriched guanylate kinase associated) | 1 | -1.18 | active |
| ICAM1 (intercellular adhesion molecule 1) | 1 | -1.48 | active |
| BBLN (bublin coiled coil protein) | 1 | -2.02 | active |
| FCRLA (Fc receptor like A) | 1 | -0.844 | inactive |
| TFIP11 (tuftelin interacting protein 11) | 1 | 0.185 | inactive |
| HEBP2 (heme binding protein 2) | 1 | 0.976 | inactive |
| TLE3 (TLE family member 3, transcriptional corepressor) | 1 | 1.59 | active |
| LIN7A (lin-7 cell polarity scaffold A) | 1 | -1.59 | active |
| ZNF496 (zinc finger protein 496) | 1 | 0.565 | inactive |
| UNC119 (unc-119 lipid binding chaperone) | 1 | 0.889 | inactive |
| C8G (complement C8 gamma chain) | 1 | -0.588 | inactive |
| DDO (D-aspartate oxidase) | 1 | 1.88 | active |
| APOA1 (apolipoprotein A1) | 1 | -0.521 | inactive |
| ZNF576 (zinc finger protein 576) | 1 | 0.437 | inactive |
| EIF1B (eukaryotic translation initiation factor 1B) | 1 | 0.9 | inactive |
| CALCOCO1 (calcium binding and coiled-coil domain 1) | 1 | 1.06 | active |
| NR1H2 (nuclear receptor subfamily 1 group H member 2) | 1 | -1.25 | active |
| PABPC1 (poly(A) binding protein cytoplasmic 1) | 1 | -0.961 | inactive |
| ATPAF2 (ATP synthase mitochondrial F1 complex assembly factor 2) | 1 | -0.477 | inactive |
| LEFTY2 (left-right determination factor 2) | 1 | -1.26 | active |
| OR5H14 (olfactory receptor family 5 subfamily H member 14) | 1 | -0.742 | inactive |
| GYPB (glycophorin B (MNS blood group)) | 1 | -0.749 | inactive |
| UQCRFS1 | 1 | 0.868 | inactive |
| STPG4 (sperm-tail PG-rich repeat containing 4) | 1 | -2.31 | active |
| OR5H1 (olfactory receptor family 5 subfamily H member 1) | 1 | -2.14 | active |
| TIMM10B (translocase of inner mitochondrial membrane 10B) | 1 | -2.23 | active |
| EFHD2 (EF-hand domain family member D2) | 1 | 1.1 | active |
| ARL5A (ARF like GTPase 5A) | 1 | 1.14 | active |
| NID2 (nidogen 2) | 1 | -1.85 | active |
| TMEM167B (transmembrane protein 167B) | 1 | -0.777 | inactive |
| OTUD4 (OTU deubiquitinase 4) | 1 | -2.14 | active |
| TEX264 (testis expressed 264, ER-phagy receptor) | 1 | 0.907 | inactive |
| TCP11L1 (t-complex 11 like 1) | 1 | -0.926 | inactive |
| IL17A (interleukin 17A) | 1 | 0.892 | inactive |
| EXOC2 (exocyst complex component 2) | 1 | -0.618 | inactive |
| AARS1 (alanyl-tRNA synthetase 1) | 1 | -1.45 | active |
| ANP32B (acidic nuclear phosphoprotein 32 family member B) | 1 | 0.291 | inactive |
| SLC25A25 | 1 | 1.08 | active |
| CLIP2 (CAP-Gly domain containing linker protein 2) | 1 | 0.823 | inactive |
| ARHGAP11A (Rho GTPase activating protein 11A) | 1 | 0.422 | inactive |
| ARL8B (ARF like GTPase 8B) | 1 | -0.629 | inactive |
| KRT83 (keratin 83) | 1 | 1.38 | active |
| SLC25A2 | 1 | -1.3 | active |
| ZFP36L2 (ZFP36 like 2 zinc finger CCCH-type) | 1 | 0.157 | inactive |
| STAG2 (STAG2 cohesin complex component) | 1 | -0.453 | inactive |
| EFNB1 (ephrin B1) | 1 | -1.99 | active |
| PCYOX1 (prenylcysteine oxidase 1) | 1 | 1.15 | active |
| ACTR3 (actin related protein 3) | 1 | 0.666 | inactive |
| TSTD2 (thiosulfate sulfurtransferase like domain containing 2) | 1 | -1.37 | active |
| NFKB1 (nuclear factor kappa B subunit 1) | 1 | 0.719 | inactive |
| ERP44 (endoplasmic reticulum protein 44) | 1 | -1.54 | active |
| PSG6 (pregnancy specific beta-1-glycoprotein 6) | 1 | -0.904 | inactive |
| WFDC9 (WAP four-disulfide core domain 9) | 1 | -1.08 | active |
| TCAP (titin-cap) | 1 | 1.3 | active |
| DHX37 (DEAH-box helicase 37) | 1 | -0.662 | inactive |
| NXPE4 (neurexophilin and PC-esterase domain family member 4) | 1 | 2.14 | active |
| CALN1 (calneuron 1) | 1 | -0.181 | inactive |
| SYTL2 (synaptotagmin like 2) | 1 | -1.55 | active |
| RAI1 (retinoic acid induced 1) | 1 | 0.359 | inactive |
| CAMP (cathelicidin antimicrobial peptide) | 1 | 0.58 | inactive |
| LY9 (lymphocyte antigen 9) | 1 | 0.716 | inactive |
| PSORS1C1 (psoriasis susceptibility 1 candidate 1) | 1 | -0.766 | inactive |
| GRAMD2B (GRAM domain containing 2B) | 1 | 1.22 | active |
| OGFOD1 | 1 | 1.31 | active |
| MOV10L1 (Mov10 like RNA helicase 1) | 1 | -0.725 | inactive |
| CD247 (CD247 molecule) | 1 | 2.98 | active |
| ANKHD1 (ankyrin repeat and KH domain containing 1) | 1 | -1.42 | active |

Laid out differently: results already given
target	reagent no.	z-score vs non-targeting control	call
EFNB1 (ephrin B1)	1	-1.99	active
PCYOX1 (prenylcysteine oxidase 1)	1	1.15	active
ACTR3 (actin related protein 3)	1	0.666	inactive
TSTD2 (thiosulfate sulfurtransferase like domain containing 2)	1	-1.37	active
NFKB1 (nuclear factor kappa B subunit 1)	1	0.719	inactive
ERP44 (endoplasmic reticulum protein 44)	1	-1.54	active
PSG6 (pregnancy specific beta-1-glycoprotein 6)	1	-0.904	inactive
WFDC9 (WAP four-disulfide core domain 9)	1	-1.08	active
TCAP (titin-cap)	1	1.3	active
DHX37 (DEAH-box helicase 37)	1	-0.662	inactive
NXPE4 (neurexophilin and PC-esterase domain family member 4)	1	2.14	active
CALN1 (calneuron 1)	1	-0.181	inactive
SYTL2 (synaptotagmin like 2)	1	-1.55	active
RAI1 (retinoic acid induced 1)	1	0.359	inactive
CAMP (cathelicidin antimicrobial peptide)	1	0.58	inactive
LY9 (lymphocyte antigen 9)	1	0.716	inactive
PSORS1C1 (psoriasis susceptibility 1 candidate 1)	1	-0.766	inactive
